Only a part is listed here, and it is no random draw. Calls of active or inactive are those of the source. No stated cut-off is given here; in the data, active means inhibition above about 33%; inactive means the rest.

Sequences of proteins named here, by UniProt entry; tags and fusion partners are left off. A change or cut given only in a name is not applied to a line headed by its entry.
UniProt P03206: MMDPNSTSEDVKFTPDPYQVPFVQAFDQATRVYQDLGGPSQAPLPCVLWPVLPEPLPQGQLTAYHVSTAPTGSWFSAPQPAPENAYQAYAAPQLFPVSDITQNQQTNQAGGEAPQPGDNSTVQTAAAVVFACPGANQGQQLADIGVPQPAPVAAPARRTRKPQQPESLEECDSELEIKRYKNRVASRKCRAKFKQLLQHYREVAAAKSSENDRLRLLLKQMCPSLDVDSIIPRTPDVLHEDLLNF

In this assay the target is Lytic switch protein BZLF1 (Epstein-Barr virus (strain B95-8)) (UniProt P03206). Put plainly: Zta-DNA interaction blockers, Epstein-Barr virus – biochemical, fluorescence polarization, single concentration, counter-screen for EBNA-1 inhibitor project, primary screen (AID 2234). Particulars: ZTA-DNA binding, at 11 µM, stronger effect = higher value. Background: Fluorescence polarisation rises when a labelled molecule tumbles more slowly, as on binding a larger partner.
Broadly, the inhibition is the drop in the measured response relative to a control, in per cent. Regarding `O=C(Nc1cc([As](=O)(O)O)ccc1O)c1ccccc1`, the inhibition is inactive: -2.28%.
To `CC(C)(C)C(=O)NC(Sc1ccncn1)C(Cl)(Cl)Cl` (configuration not stated) belongs inactive: 16.8%; to `O=[N+]([O-])c1ncn(CCn2ncnc2[N+](=O)[O-])n1`, inactive: 1.41%; to `O=[N+]([O-])c1cccc(NC2=NCC(CBr)S2)c1` (configuration not stated), inactive: 3.36%.
To `COc1ccc(C2=NCC(CBr)S2)cc1` (configuration not stated) belongs inactive: 2.52%; to `O=[N+]([O-])c1cccc2n[nH]nc12`, inactive: -11%; to `CC(=O)N1C2C3N(C(C)=O)C1C1N(C(C)=O)C(C(N1C(C)=O)N3C(C)=O)N2C(C)=O`, inactive: 9.63%.
Turning to `CCc1nc2c(n1)c1c(non1O)c1c2no[n+]1[O-]`, the inhibition was inactive: 9.46%.
To `O=[N+]([O-])c1cc([N+](=O)[O-])c(CCNc2ccccc2)c([N+](=O)[O-])c1` belongs inactive: -5.4%; to `Cc1ccc(NP(=O)(Oc2ccccc2)Oc2ccccc2)nc1`, inactive: -9.61%; to `C[N+]1=C2C=CC=CC=C2SC12C([N+](=O)[O-])=CC([N+](=O)[O-])=C[C-]2[N+](=O)[O-]` (configuration not stated), inactive: 29.1%.
To `Nc1ccc([As](=O)(O)c2ccc(N)cc2)cc1` belongs inactive: -14.8%; to `CCN(/C(=N/P(=O)(N1CCOCC1)N1CCOCC1)N1CCOCC1)c1ccc(OC)cc1`, inactive: -16.3%.
On to `CN(C)C(=O)OCCc1n(C)cc[n+]1C`, for which the inhibition was inactive: 0.52%.
The figure for `CC(C)=N/N=C(\N)N[N+](=O)[O-]` is inactive: -9.14%; for `CC1CCN(C(=O)Oc2c(Cl)cc(Cl)c3cccnc23)CC1` it is inactive: -8.29%.
To `NC(=O)c1cc([N+](=O)[O-])cc([N+](=O)[O-])c1N` belongs inactive: 5.35%.
Regarding `Cc1ccc(N/C(=N/P(=O)(N2CCOCC2)N2CCOCC2)N2CCOCC2)cc1`, the inhibition is inactive: 8.28%.
The figure for `CN(C(=O)Cc1ccc(Cl)c(Cl)c1)[C@H]1CCCC[C@H]1N1CCCC1` is inactive: -9.09%; for `Cc1ccc(OP(=O)(Nc2nccs2)Oc2ccc(C)cc2)cc1` it is inactive: 3.43%; for `COc1ccccc1OP(=O)(Nc1ccc(C)cn1)Oc1ccccc1OC` it is inactive: -1.66%.
With `CN1CCCC(OC(=O)C(c2ccccc2)c2ccccc2)C1` (configuration not stated), the inhibition is inactive: 4.8%.
The figure for `Clc1ccc(Cl)c(NC2=NCC(CBr)S2)c1` (configuration not stated) is inactive: 11.7%.
The figure for `Nc1cc(N)c2nonc2c1[N+](=O)[O-]` is inactive: 2.28%.
To `CC(C)CC(=O)NC(Sc1ccc(Cl)cc1)C(Cl)(Cl)Cl` (configuration not stated) belongs inactive: 1.75%; to `O=C(NC(Sc1ccncn1)C(Cl)(Cl)Cl)c1ccccc1` (configuration not stated), inactive: -6.21%.
For `Cc1c2non([O-])c-2c(C)[n+](=O)[n+]1[O-]`, the inhibition is inactive: 11.3%.
Take `Oc1ccccc1CNc1ccccn1`: the inhibition was inactive: 12.2%.
To `CC(=O)Nc1ccc([As](=O)(O)O)cc1` belongs inactive: -4.85%.
On to `O=C(O)c1ccccc1[As](=O)(O)O`, for which the inhibition was inactive: -16.2%.
For the molecule `O=P(Nc1nc2ccc(Cl)cc2s1)(c1ccccc1)c1ccccc1`, the inhibition was inactive: -5.01%.
As to `Cc1ccc(NP(=O)(Oc2ccccc2F)Oc2ccccc2F)nc1`, the inhibition is inactive: 6.31%.
In the case of `CN(C(=O)Cc1ccc(Cl)c(Cl)c1)[C@H]1CCCC[C@@H]1N1CCCC1`, the inhibition was inactive: -10.5%.
The figure for `Cc1cc(SC(NC(=O)c2ccc(F)cc2)C(Cl)(Cl)Cl)ncn1` (configuration not stated) is inactive: 5.22%; for `CCOP(=O)(Nc1ccccc1)OCC` it is inactive: 9.05%; for `O=[N+]([O-])c1cc([N+](=O)[O-])c(CCN2CCOCC2)c([N+](=O)[O-])c1` it is inactive: 4.45%.
The figure for `CCN(N=Nc1nonc1N)c1nonc1N` is inactive: -8.01%; for `CCNC(=S)/N=C(\N)N[N+](=O)[O-]` it is inactive: 8.87%.
On to `O=C(NC1CCS(=O)(=O)C1)NP(=S)(Oc1ccccc1)Oc1ccccc1` (configuration not stated), for which the inhibition was inactive: -1.19%.
For the molecule `Cc1ccc(NP(=O)(Oc2cccc(C)c2)Oc2cccc(C)c2)nc1`, the inhibition was inactive: 3.74%.
Take `CCOC(=O)NC(Sc1ccccc1)C(Cl)(Cl)Cl` (configuration not stated): the inhibition was inactive: 2%.
With `c1ccc(-c2nn[nH]n2)c(-c2nn[nH]n2)c1`, the inhibition was inactive: -5.33%.
With `CC(=O)NC(SC(=S)N(CC(C)C)CC(C)C)C(Cl)(Cl)Cl` (configuration not stated), the inhibition was inactive: -2.11%.
To `Cc1ccc(OP(=O)(Nc2ccccn2)Oc2ccc(C)cc2)cc1` belongs inactive: 3.59%.
To `COC(=O)c1cc2c(s1)N=C(c1ccccc1)N(C)P2(=O)N1CCOCC1` (configuration not stated) belongs inactive: -7.82%; to `CCC(=O)N1C2C3N(C(=O)CC)C1C1N(C(=O)CC)C(C(N1C(=O)CC)N3C(=O)CC)N2C(=O)CC`, inactive: 16.6%; to `O=C(OC1CN2CCC1CC2)c1ccccc1` (configuration not stated), inactive: -14.1%.
The figure for `CN(C)C(=O)Oc1noc2ccccc12` is inactive: 4.97%.
With `Cc1ccccc1OP(=O)(Nc1ccccn1)Oc1ccccc1C`, the inhibition was inactive: -4.87%.
To `CCOc1ccc(C2=NCC(CBr)S2)cc1` (configuration not stated) belongs inactive: 14.2%; to `O=P1(Nc2nc3ccc(Cl)cc3s2)COc2ccccc2O1` (configuration not stated), inactive: -3.8%; to `CC(C)(C)C(=O)NC(Sc1ccccc1)C(Cl)(Cl)Cl` (configuration not stated), inactive: -18%.
The figure for `CC(=O)c1ccc(N2CC2c2ccncc2)cc1` (configuration not stated) is inactive: -9.54%.
The figure for `C[C@H]1OP(=O)(Oc2ccccc2)C[C@@H]2O[C@@H]21` (some centres not stated) is inactive: -8.51%.
Turning to `C[C@@H]1C=CCP(=O)(Oc2ccccc2)O1` (some centres not stated), the inhibition was inactive: 1.75%.
As to `Cc1ccccc1CN(C)C(=O)COC(=O)C(O)(c1ccccc1)c1ccccc1`, the inhibition was inactive: -0.08%.
To `CC(=O)Nc1ccc(Oc2c([N+](=O)[O-])cc([N+](=O)[O-])cc2[N+](=O)[O-])cc1` belongs inactive: 3.64%.
As to `CC(=O)Nc1ccc([As](=O)(O)O)c(O)c1`, the inhibition is inactive: -7.31%.
The figure for `CC(C)C(=O)NC(Sc1ccccc1)C(Cl)(Cl)Cl` (configuration not stated) is inactive: -6.59%.
The figure for `O=P(Nc1nccs1)(c1ccccc1)c1ccccc1` is inactive: 3.27%.
To `c1nnnn1CCn1cnnn1` belongs inactive: -1.35%.
Consider `O=P(Nc1ccccn1)(c1ccc(Br)cc1)c1ccc(Br)cc1`, for which the inhibition was inactive: 6.26%.
On to `CN(C)C1(CNC(=O)c2ccc(Cl)c(S(N)(=O)=O)c2)CCCCC1`, for which the inhibition is inactive: -13.1%.
With `C[C@H]1OP(=O)(Oc2ccccc2)[C@H](O)[C@H](O)[C@H]1N=[N+]=[N-]` (some centres not stated), the inhibition is inactive: 7.14%.
The figure for `O=P(Nc1nc2ccccc2s1)(c1ccccc1)c1ccccc1` is inactive: 6.82%.
Regarding `O=[N+]([O-])c1ccc(O)c(/C=N/Nc2ccc([N+](=O)[O-])cc2[N+](=O)[O-])c1`, the inhibition is inactive: -6%.
To `CC(=O)NC(SC(=S)N(C)C)C(Cl)(Cl)Cl` (configuration not stated) belongs inactive: 3.36%.
As for `O=[N+]([O-])c1ncn(CCn2cnc([N+](=O)[O-])n2)n1`, the inhibition was inactive: -5.22%.
For the molecule `O=[As](O)(c1ccccc1)c1ccc(O)cc1`, the inhibition is inactive: -5.7%.
To `C(Cc1nn[nH]n1)Cc1nn[nH]n1` belongs inactive: -2.03%; to `Nc1ccc([As](=O)(O)c2ccc([N+](=O)[O-])cc2)cc1`, inactive: 3.04%; to `O=C(OC1CN2CCC1CC2)c1cccc(Cl)c1` (configuration not stated), inactive: 18.2%.
To `CC1CCC(C(C)C)C(OP(=O)(Nc2ccccn2)c2ccccc2)C1` (configuration not stated) belongs inactive: 9.27%; to `Cc1ccc(C(=O)OC2CN3CCC2CC3)cc1` (configuration not stated), inactive: 8.3%.
With `Cc1nn(-c2ccccc2)c2c1P(=O)(N1CCOCC1)N(C)C(c1ccccc1)=N2` (configuration not stated), the inhibition was inactive: -3.82%.
The figure for `O=C(/C=C/c1ccccc1)OC1CN2CCC1CC2` (configuration not stated) is inactive: -2.34%.
With `CN(C)C1(CNC(=O)c2ccc(S(C)(=O)=O)cc2)CCCCC1`, the inhibition is inactive: 1.84%.
To `O=P1(Nc2ncccn2)COc2ccccc2OC1` belongs inactive: 13.3%; to `Cc1ccc(OCC(=O)OC2CN3CCC2CC3)cc1` (configuration not stated), inactive: -1.09%.
The figure for `O=[As](O)(c1cccs1)c1cccs1` is inactive: -2.36%; for `O=P1(Nc2ccc(Br)cn2)COc2ccccc2OC1` it is inactive: -15.5%; for `NS(=O)(=O)c1cccc(NC(=O)COC(=O)C(O)(c2ccccc2)c2ccccc2)c1` it is inactive: 3.82%.
For `Nc1cccc([As](=O)(O)c2ccccc2)c1`, the inhibition is inactive: 9.91%.
For `CCOP(=O)(Nc1ccc(C)cn1)OCC`, the inhibition was inactive: -3.58%.
To `CN(CCCl)Cc1cc(Cl)c(NC2=NCCN2)c(Cl)c1` belongs inactive: -1.07%; to `CCOP(=O)(NC(=NC(C)c1ccccc1)NC(C)c1ccccc1)OCC` (configuration not stated), inactive: -18.5%; to `O=P1(Nc2ccccn2)COc2ccccc2OC1`, inactive: -7.67%.
Take `CCC1=CC2Cc3nc4ccc(Cl)cc4c(N)c3C(C1)C2` (configuration not stated): the inhibition was inactive: 3.17%.
Regarding `CC(C)(C)C(=O)NC(Sc1ncccn1)C(Cl)(Cl)Cl` (configuration not stated), the inhibition is inactive: -7.81%.
In the case of `Clc1n[nH]nc1-c1nn[nH][15n]1`, the inhibition was inactive: 4.9%.
With `COc1ccccc1CNC(=O)COC(=O)C(O)(c1ccccc1)c1ccccc1`, the inhibition is inactive: 6.38%.
`CC1(CBr)Cn2c(nc3ccccc3c2=O)S1` (configuration not stated): the inhibition was inactive: 2.79%.
As for `CC(C)/C=N\N=C(\N)N[N+](=O)[O-]`, the inhibition is inactive: -12.9%.
To `CN(C(=O)Cc1ccc(Cl)c(Cl)c1)[C@@H]1CCCC[C@H]1N1CCCC1` belongs inactive: 13.1%; to `CS(=O)(=O)c1ccc(Cl)c(NC(=O)COC(=O)C(O)(c2ccccc2)c2ccccc2)c1`, inactive: -10.5%; to `O=[As](O)(O)c1cccnc1`, inactive: 4.88%.
For the molecule `COc1cc(C(=O)NCC2(N3CCOCC3)CCCCC2)cc(Cl)c1OC(C)C`, the inhibition is inactive: 1.55%.
The figure for `O=C(OC1CN2CCC1CC2)c1ccc(Cl)cc1` (configuration not stated) is inactive: -3.78%; for `Cc1cccc(OCC(=O)OC2CN3CCC2CC3)c1` (configuration not stated) it is inactive: -8.02%; for `O=[As](O)(c1cccc(O)c1)c1cccc(O)c1` it is inactive: 4.53%.
As for `CCCOP(=S)(Nc1nc(N)cc(=O)[nH]1)OCCC`, the inhibition was inactive: 1.54%.
The figure for `Cc1ccc(NCCc2c([N+](=O)[O-])cc([N+](=O)[O-])cc2[N+](=O)[O-])cc1` is inactive: -0.13%.

The values are drawn from PubChem BioAssay AID2234 (The Scripps Research Institute Molecular Screening Center, 2010).
